Common to all, as to assay: cell-based or functional assay
Assay [1] has as its target SARS-CoV-2 Omicron BA.4.6 spike protein (R346T, F486V) (SARS-CoV-2, UniProt P0DTC2 14-1273).
The target in assay [2] is SARS-CoV-2 spike protein, Delta variant (SARS-CoV-2).
Assay [3] deals with SARS-CoV-2 spike protein, Omicron variant BA.4/5 (SARS-CoV-2).
The target of assay [4] is SARS-CoV-2 spike protein, Omicron variant BQ.1 (SARS-CoV-2).
Assay [5] concerns the target SARS-CoV-2 spike protein, Omicron variant BQ.1.1 (SARS-CoV-2).
The target of assay [6] is SARS-CoV-2 spike protein, Omicron variant BA.2.75.2 (SARS-CoV-2).
Assay [7] deals with SARS-CoV-2 spike protein, Omicron variant XBB (SARS-CoV-2).

Changes are numbered by the printed parent chain.

B1: MX828 (bispecific antibody)
chain: QTVVTQEPSFSVSPGGTVTLTCGLSSGSVSTAYFPSWYQQTPGQAPRTLIYGTNTRSSGVPDRFSGSILGNKAALTITGAQADDESDYYCVLYMGRGIVVFGGGTKLTVLGGSSGEIVLTQSPGTLSLSPGERATLSCRASQSVSSSYLAWYQQKPGQAPRLLIYSASSRATGIPDRFSGSGSGTDFTLTISRLEPEDFAVYFCQQYVGLTGWTFGQGTKVEIKGGGGSGGSGSGGGGSASGSGQMQLVQSGPEVKKPGTSVKVSCKASGFTFTSSAVQWVRQRQRLEWIGWIVVGSGNTNYAQKFQERVTITRDMSTSTAYMELSSLRSEDTAVYYCAAPNCSNVVCYDGFDIWGQGTMVTVSSGGSSGQVQLVESGGGVVQPGRSLRLSCAASGFTLSSYGMHWVRQAPGKGLEWVAVISYDGSNKYYVDSVKGRFTISRDNSKNTLYLQMNSLRAEDTAVYYCRWAYWELLPDYYYGMDVWGQGTTVTVSSASGGSGDKTHTCPPCPAPELLGGPSVFLFPPKPKDTLMISRTPEVTCVVVDVSHEDPEVKFNWYVDGVEVHNAKTKPREEQYNSYVVSVLTVLHQDWLNGKEYKCKVSNKALPAPIEKTISKAKGQPREPQVYTLPPSRDELTKNQVSLTCLVKGFYPSDIAVEWESNGQPENNYKTTPPVLDSDGSFFKKLTVDKSRWQQGNVFSCSVLHEALHSHYTQKSLSLSPG
For B1, in assay [1], the “IC50, pseudovirus neutralization” value stood at 54 nM and the “IC80, pseudovirus neutralization” value is 300 nM.

B2: MX830 + 831 (other)
chain 1: B1 chain with V208G
chain 2: DIQMTQSPSSVSASVGDRVIITCRASQGISSWLAWYQQKPGKAPKVLIYDASSLQSGVPSRFSGSGYGTDFTLTISSLQPEDSATYYCQQAKSFPITFGQGTRLEIKGGSSGEIVLTQSPGTLSLSPGERATLSCRASQSVSSSYLAWYQQKPGQAPRLLIYSASSRATGIPDRFSGSGSGTDFTLTISRLEPEDFAVYFCQQYGGLTGWTFGQGTKVEIKGGGGSGGSGSGGGGSASGSGQMQLVQSGPEVKKPGTSVKVSCKASGFTFTSSAVQWVRQRQRLEWIGWIVVGSGNTNYAQKFQERVTITRDMSTSTAYMELSSLRSEDTAVYYCAAPNCSNVVCYDGFDIWGQGTMVTVSSGGSSGQVQLVESGGGVVQPGRSLRLSCAASGFTFSSYAFHWVRQAPGKGLEWVAVISYDGSNQYYADSVKGRFTISRDNSKNTLYLQMNSLRADDTAVYYCARDLAIAVAGTWHYYNGMDVWGQGTTVTVSSASGGSGDKTHTCPPCPAPELLGGPSVFLFPPKPKDTLMISRTPEVTCVVVDVSHEDPEVKFNWYVDGVEVHNAKTKPREEQYNSYVVSVLTVLHQDWLNGKEYKCKVSNKALPAPIEKTISKAKGQPREPQVYTLPPSRDELTKNQVSLTCLVKGFYPSDIAVEWESNGQPENNYKTTPPVLDSDGSFFKKLTVDKSRWQQGNVFSCSVLHEALHSHYTQKSLSLSPG
Take B2: in assay [1], the “IC50, pseudovirus neutralization” value amounted to 4 nM and the “IC80, pseudovirus neutralization” value was found to be 12 nM.

B3: MX830 (bispecific antibody)
chain: B1 chain with V208G
Turning to B3, in assay [1], the “IC50, pseudovirus neutralization” value was 138 nM and the “IC80, pseudovirus neutralization” value came out at 514 nM.

B4: MX828 + 829 (other)
chain 1: B1 chain
chain 2: B2 chain 2 with G205V
Turning to B4, in assay [1], the “IC50, pseudovirus neutralization” value was 5 nM and the “IC80, pseudovirus neutralization” value is 10 nM.

B5: MX829 (bispecific antibody)
chain: B2 chain 2 with G205V
As to B5, in assay [1], the “IC50, pseudovirus neutralization” value was 4 nM and the “IC80, pseudovirus neutralization” value was determined as 13 nM.

B6: MX831 (bispecific antibody)
chain: B2 chain 2
Regarding B6, in assay [1], the “IC50, pseudovirus neutralization” value worked out at 3 nM and the “IC80, pseudovirus neutralization” value was found to be 10 nM.

B7: B8 (antibody, V domains shown)
VH: EVQLVESGGALIQPGGSLRLSCAASGIIVSANYMSWVRQAPGKGLEWVSVIYSGGSTFYADSVKGRFTISRDNSKNTLYLEMNSLRAEDTAVYYCARDAPILGVSDWGQGTLVTVSS
VL: EIVMTQSPAILSVSPGERATLSCRASQSVAINLAWYQQKPGQAPRLLIYAASSRATGIPGRFSGSGSETNFTLTISSLQSGDFAVYYCQQYITWPPSYTFGQGTKLEIK
On to B7, for which, in assay [2], the “IC50, pseudovirus neutralization” value worked out at 0.0133 µg/mL and the “IC80, pseudovirus neutralization” value is 0.199 µg/mL.

B8: A23-58.1HC/58.1LC_93VGLTG (antibody, V domains shown)
VH: QMQLVQSGPEVKKPGTSVKVSCKASGFTFTSSAVQWVRQRQRLEWIGWIVVGSGNTNYAQKFQERVTITRDMSTSTAYMELSSLRSEDTAVYYCAAPNCSNVVCYDGFDIWGQGTMVTVSS
VL: EIVLTQSPGTLSLSPGERATLSCRASQSVSSSYLAWYQQKPGQAPRLLIYSASSRATGIPDRFSGSGSGTDFTLTISRLEPEDFAVYFCQQYVGLTGWTFGQGTKVEIK
B8: in assay [1], the “IC50, pseudovirus neutralization” value came to 1 nM and the “IC80, pseudovirus neutralization” value amounted to 9 nM.

B9: E12 (antibody, V domains shown)
VH: EVQLVESGGGLIQPGGSLRLSCAASGVIVSYNYMNWVRQAPGKGLEWVSVIYSGGSTFYADSVRGRFTISRDNSKNTLYLQMNSLRAEDTAVYYCARDLGPAGAFDIWGLGTMVTVSS
VL: EIVLTQSPGTLSLSPGETATLSCRASQSFSSDLAWYQQKPGQAPRLLIYGASSRATGIPDRFSGSGSGTDFTLTISRLEPADFAVYYCQQYGSSPPVTFGGGTKVEIK
In the case of B9, the “IC50, pseudovirus neutralization” value in assay [3] stood at 0.00462 µg/mL; in assay [4], 0.0119 µg/mL; in assay [5], 0.00529 µg/mL; in assay [6], 0.00699 µg/mL; in assay [7], 0.0126 µg/mL. Further, the “IC80, pseudovirus neutralization” value is 0.00921 µg/mL in assay [3]; 0.0409 µg/mL in assay [4]; 0.0174 µg/mL in assay [5]; 0.0401 µg/mL in assay [6]; 0.0311 µg/mL in assay [7].

B10: E8 (antibody, V domains shown)
VH: QVTLRESGPALVKPTQTLTLTCTFSGFSLSTRGVCVSWIRQPPGKALEWLAFIDWDDDKYYNTSLKTRLTISKDTSKNQVVLTMTNVHPVDTATYYCARISSHHGSSWCTTFDYWGQGALVTVSA
VL: DTVMTQSPLSLPVTPGEPASISCRSSQSLLNSNGYNYLDWYVQKPGQSPQLLIYLGSNRASGVPDRFSGSGSGTDFTLKISRVEAEDVGVYYCMQPLQTPLFTFGPGTKVEIK
With B10, the “IC50, pseudovirus neutralization” value stood at 0.00013 µg/mL in assay [3]; 0.124 µg/mL in assay [4]; 0.496 µg/mL in assay [5]; 0.00172 µg/mL in assay [6]; 0.0615 µg/mL in assay [7]. For the same molecule, the “IC80, pseudovirus neutralization” value in assay [3] worked out at 0.00049 µg/mL; in assay [4] it was 5.19 µg/mL; in assay [5], 1.8 µg/mL; in assay [6], 0.0059 µg/mL; in assay [7], 0.705 µg/mL.
